Data reported in publication PMC8755798 (Nature Communications, 2022).

B1: open-gate 20S proteasome core particle (Δ7PrcA, Δ57PrcB), Mycobacterium tuberculosis (complex)
chain 1: not shown
chain 2: not shown
notes: copies: 14 + 14
B2: proteasome α-subunit Δ7PrcA, Mycobacterium tuberculosis (natural protein)
chain: not shown
B3: proteasome β-subunit Δ57PrcB, Mycobacterium tuberculosis (natural protein)
chain: not shown

Key:
Experiment in all cases: cryo-EM structure
[1] = target: mycobacterial proteasome ATPase (Mpa), Mycobacterium tuberculosis, wild type (Mycobacterium tuberculosis); settings: both partners purified
cryo-EM structure = target: the molecule itself
[2] = target: B2; settings: both partners purified

Binder | binding result [1] | stoichiometry N (cryo-EM structure) | binding result [2]
B1 | binds |  | 
B2 | binds | 7 | 
B3 |  |  | binds
